Compound potency records, mixed from different reports. Data source: NIAID ChemDB in PubChem.

Common to all: tests in culture; species: HIV-1; endpoint: EC50

ECn is the concentration giving n% inhibition of infection, replication or growth.

compound | cells | strain or isolate | read by | mutations | value
COc1cc(F)ccc1OCCNc1ccc(-c2cnc(C)c([C@H](OC(C)(C)C)C(=O)O)c2N2CCC(C)(C)CC2)nc1 | MT-2 | NL4-3 | luminescence | - | 0.0013 µM
C[C@@H]1CN(C(=O)c2ccccc2)CCN1C(=O)C(=O)c1c[nH]c2c(NC(=O)c3ccccn3)cccc12 | HeLa | - | luciferase / reporter gene | - | <1 µM
COc1cccc2[nH]cc(C(=O)C(=O)N3CCN(C(=O)c4ccccc4)C[C@H]3C)c12 | MT-2/CXCR4 | RF | virus yield | - | 6.034 µM
Nc1nc(NC2CC2)c2ncn([C@H]3C=C[C@@H](CO)C3)c2n1 | MT-2 | Clinical isolate | recombinant virus assay | M41LK67N/K70R/M184V/L210W/T215Y/K219E | 0.6072 µM
Cc1ccc(OCCNc2ccc(-c3cnc(C)c([C@H](OC(C)(C)C)C(=O)O)c3N3CCC(C)(C)CC3)cn2)cc1F | MT-2 | NL4-3 | luminescence | - | 0.0063 µM
Nc1ccc(S(=O)(=O)NC(Cc2ccccc2)C(F)(F)C(=O)[C@@H](Cc2ccccc2)NC(=O)O[C@H]2CCOC2)cc1 | CEM | IIIB | p24 | - | <1 µM
Cc1cc2cn[nH]c2cc1NC(=O)COc1ccc(Cl)cc1C(=O)c1cccc(C#N)c1 | HeLa + HELA CD4+ | WTRVA | β-galactosidase | - | <0.01 µM
COc1ccc(S(=O)(=O)N(CC[C@H](O)Cc2ccccc2C(=O)NC(C)(C)C)CC(C)C)cc1 | CEM | IIIB | p24 | - | <1 µM
Cc1cc(S(N)(=O)=O)ccc1NC(=O)COc1ccc(Cl)cc1C(=O)c1cc(F)cc(C#N)c1 | MT-4 | Nevirapine-resistant (RT Y181C) | cytopathic effect / propidium iodide | RT-Y181C | <0.01 µM
COc1ccc(S(=O)(=O)N(CC2CCCC2)C[C@H](O)CN(CCc2ccccc2)C(=O)O[C@H]2CCOC2)cc1 | CEM | IIIB | p24 | - | <1 µM
CC(C)C1=C2[C@H]3CC[C@@H]4[C@@]5(C)CC[C@H](OC(=O)[C@H]6C[C@@H](C(=O)O)C6(C)C)C(C)(C)[C@@H]5CC[C@@]4(C)[C@]3(C)CC[C@@]2([C@@H](O)CN(CCN(C)C)Cc2cncnc2)CC1=O | MT-2 | 92HT599 | p24 / ELISA | - | <1 µM
CCCc1cc(=O)oc2c3c(c4c(c12)OC(C)(C)CC4)O[C@@H](C)[C@H](C)[C@@H]3O | CEM + CEM-SS | NL4-3 | XTT | RT-T139I | 2.9 µM
CC(C)=CCOc1cc(NC(=S)c2ccoc2C)ccc1Cl | CEM + CEM-SS | NL4-3 (RT Y188C) | cytopathic effect / XTT | RT-Y188C | 0.01 µM
CC(=O)Nc1cccc2c(C(=O)C(=O)N3CCN(C(=O)c4ccccc4)C[C@H]3C)c[nH]c12 | HeLa | - | luciferase / reporter gene | - | <1 µM
Cc1ncc(-c2cc(F)c(F)c(OC3CC(c4ccc(F)cc4)C3)c2)c(N2CCC(C)(C)CC2)c1[C@H](OC(C)(C)C)C(=O)O | MT-2 | NL4-3 | luminescence | - | 0.0215 µM
CCOC(=O)CCCCCNC(=O)Nc1cccc2c(C(=O)C(=O)N3CCN(C(=O)c4ccccc4)C[C@H]3C)c[nH]c12 | HeLa | - | luciferase / reporter gene | - | <1 µM
CC1(C)CC=C(c2cn(-c3nccc(C(=O)NC4CCC(N5CC6CCC(C5)O6)CC4)n3)c3ccc(F)c([C@H](OC(C)(C)C)C(=O)O)c23)CC1 | MT-4 | NL4-3 | luminescence | G140S/Q148H | 0.0051 µM
CC(C)C1=C2[C@H]3CC[C@@H]4[C@@]5(C)CC[C@H](OC(=O)[C@H]6C[C@@H](C(=O)O)C6(C)C)C(C)(C)[C@@H]5CC[C@@]4(C)[C@]3(C)CC[C@@]2(CC(=O)NCC(C)(C)N)CC1=O | MT-2 | 92HT599 | p24 / ELISA | - | <1 µM
CC(C)=CCOc1cc(NC(=S)c2ccsc2C)ccc1Cl | CEM + CEM-SS | UC82-R (RT-Y181C) | cytopathic effect / XTT | RT-Y181C | 0.2 µM
Cc1cc2[nH]cnc2cc1NC(=O)COc1ccc(Cl)cc1C(=O)c1cc(F)cc(C(F)(F)F)c1 | HeLa + HELA CD4+ | HXB2 | β-galactosidase | RT-Y181C | <0.01 µM
COc1ccc(S(=O)(=O)NC(CC(C)C)C(F)(F)C(=O)[C@@H](Cc2ccccc2)NC(=O)O[C@H]2CCOC2)cc1 | CEM | IIIB | p24 | - | <1 µM
CC1CC(C)CN(S(=O)(=O)c2ccccc2[N+](=O)[O-])C1 | HeLa | G-3 | GFP / fluorescence | - | 0.89 µM
Nc1ccn([C@H]2CC[C@@H](CO)O2)c(=O)n1 | - | NL4-3 | β-galactosidase | Q41R | 0.259 µM
C/C=C/CSc1cc(NC(=S)c2ccsc2C)ccc1Cl | CEM + CEM-SS | 4xAZT(RT-D67N K70R T215Y K219Q) | p24 | RT-D67N K70R T215Y K219Q | 0.04 µM
Cc1cc(C#N)cc(C(=O)c2cc(Cl)ccc2OCC(=O)Nc2ccc(S(N)(=O)=O)nc2C)c1 | HeLa + HELA CD4+ | HXB2 | β-galactosidase | RT-V106A Y181C | <0.01 µM
CC(C)C1=C2[C@H]3CC[C@@H]4[C@@]5(C)CC[C@H](OC(=O)[C@H]6C[C@@H](C(=O)O)C6(C)C)C(C)(C)[C@@H]5CC[C@@]4(C)[C@]3(C)CC[C@@]2([C@@H](O)CNCc2ccc(CN3CCN(C)CC3)cc2)CC1=O | MT-2 | 92HT599 | p24 / ELISA | - | <1 µM
CCC(=O)c1ccc(F)c([C@@H]2C[C@@H]2NC(=O)Nc2ccc(C#N)cn2)c1O | TZM-bl | LAI | β-galactosidase / luminescence | NNRTI-resistant (RT K101E) | 0.00325 µM
Cc1ncc(-c2ccc(OCCCOc3ccccc3)cn2)c(N2CCC(C)(C)CC2)c1[C@H](OC(C)(C)C)C(=O)O | MT-2 | NL4-3 | luminescence | - | 0.0012 µM
Cc1cc(S(N)(=O)=O)ccc1NC(=O)COc1ccc(Cl)cc1C(=O)c1cccc(C#N)c1 | HeLa + HELA CD4+ | HXB2 | β-galactosidase | RT-K103N V108I | <0.01 µM
C[C@H]1[C@H](O)[C@@H](C)/C=C/C=C/C=C/C=C/C=C/C=C/C=C/[C@H](O[C@@H]2O[C@H](C)[C@@H](O)[C@H](N)[C@@H]2O)C[C@@H]2O[C@](O)(C[C@@H](O)C[C@@H](O)CC[C@H](O)[C@@H](O)C[C@@H](O)CC(=O)O[C@H]1C)C[C@H](O)[C@H]2C(=O)O | PBMC | CMU08 CLADE E X4 (SI) | p24 / RT activity | - | 0.9 µM
Cc1cccc(C)c1OCCOc1ccc(-c2cnc(C)c([C@H](OC(C)(C)C)C(=O)O)c2N2CCC(C)(C)CC2)nc1 | MT-2 | NL4-3 | luminescence | - | 0.0047 µM
CC(C)C1=C2[C@H]3CC[C@@H]4[C@@]5(C)CC[C@H](OC(=O)[C@H]6C[C@@H](C(=O)O)C6(C)C)C(C)(C)[C@@H]5CC[C@@]4(C)[C@]3(C)CC[C@@]2([C@@H](O)CNC(=O)C(C)(C)NC(=O)CN2CCCCC2)CC1=O | MT-2 | 92HT599 | p24 / ELISA | - | <1 µM
O=C(c1ccccc1)N(CCc1ccccc1)C[C@H](O)CN(CC1CCCC1)S(=O)(=O)C1CS(=O)(=O)CC1O | CEM | IIIB | p24 | - | <1 µM
CC(C)C1=C2[C@H]3CC[C@@H]4[C@@]5(C)CC[C@H](OC(=O)[C@H]6C[C@@H](C(=O)O)C6(C)C)C(C)(C)[C@@H]5CC[C@@]4(C)[C@]3(C)CC[C@@]2([C@@H](O)CNC(=O)c2ccc(N3CCC(O)CC3)cc2)CC1=O | MT-2 | 92HT599 | p24 / ELISA | - | <1 µM
COCCCOc1ccc(-c2cnc(C)c([C@H](OC(C)(C)C)C(=O)O)c2N2CCC(C)(C)CC2)cc1 | MT-2 | NL4-3 | luminescence | - | 0.0008 µM
Cc1cc(OCCCS(N)(=O)=O)ccc1NC(=O)COc1ccc(Cl)cc1C(=O)c1cc(F)cc(C(F)(F)F)c1 | HeLa + HELA CD4+ | HXB2 | β-galactosidase | RT-G190E | <0.01 µM
Cc1nc2ccccc2c(-c2cc(F)c3c(c2C)CCCO3)c1[C@H](OC(C)(C)C)C(=O)O | MT-4 | NL4-3 | luminescence | N222K | 0.039 µM
C[C@@H]1CN(C(=O)c2ccccc2)CCN1C(=O)C(=O)c1c[nH]c2c(NC(=O)C(=O)O)cccc12 | HeLa | - | luciferase / reporter gene | - | <1 µM
CC(C)CN(C(=O)C(=O)C(=O)C(Cc1ccccc1)NC(=O)OC(C)(C)C)S(=O)(=O)c1ccccc1 | CEM | IIIB | p24 | - | <1 µM
Cc1ccc(C)n1-c1ccc(C(=O)O)c(O)c1 | PBMC/5.25M7 | 93IN101 R5 CLADE C | luciferase / cell fusion | - | 13.86 µM
C[C@H](Cn1cnc2c(N)ncnc21)OCP(=O)(O)O | MT-2 | Clinical isolate | recombinant virus assay | M41L/M184V/L210W/T215Y | 0.0036 µM
Cc1ccc(OCCN(C)c2ccc(-c3cnc(C)c([C@H](OC(C)(C)C)C(=O)O)c3N3CCC(C)(C)CC3)cn2)cc1 | MT-2 | NL4-3 | luminescence | - | 0.0032 µM
C[C@@H]1CCO[C@H]2Cn3cc(C(=O)NCc4ccc(F)cc4F)c(=O)c(O)c3C(=O)N12 | TZM-bl | - | luciferase / luminescence | - | 0.0025 µM
N#CC1=CC2Nc3ccccc3C2N(c2ccc([N+](=O)[O-])cc2)C1=O | HeLa | C-98IN022 | GFP / fluorescence | - | 0.48 µM
CC(C)CN(C[C@@H](O)[C@H](Cc1ccccc1)NC(=O)O[C@H]1CCOC1)S(=O)(=O)c1ccc(N)cc1 | MT-4 | T13632 | reporter gene | V32I I50V L76V V82I | 12111 nM
CC(C)C1=C2[C@H]3CC[C@@H]4[C@@]5(C)CC[C@H](OC(=O)[C@H]6C[C@@H](C(=O)O)C6(C)C)C(C)(C)[C@@H]5CC[C@@]4(C)[C@]3(C)CC[C@@]2([C@@H](O)CNCC2(N)CNC2)CC1=O | MT-2 | 92HT599 | p24 / ELISA | - | <1 µM
CC(C)c1c(Cc2ccccc2)n(COCc2ccccc2)c(=O)[nH]c1=O | MT-4 | A17 | p24 / ELISA | K103N | >10 µM

Neighbouring rows are from separate reports. Blank or dashed fields: not listed here.